Laboratory results published in patent US20040053872A1, “New sequences” (priority 2000, published 2004).

Experiments:
[1] = biological target: T1, recombinant HIV-1 RT K103N/E478Q (Human immunodeficiency virus type 1 group M subtype B, UniProt P03366, E1077Q/K702N); details: immobilised primer/template, binding 90 min at 33° C., read-out: Inhibition of binding to template/primer (BIC50)
T1 construct: performed by recombinant HIV-1 RT:s with defined
Experimental: (§1) (iii) Protocol for RT binding inhibition (BIC) assay: The study was performed in a modified DNA polymerase assay. The inhibitors were serially diluted in five steps, enzyme dilution was added and the enzyme/inhibitor mixtures were incubated for 30 minutes at 33° C. Aliquots of the enzyme/inhibitor mixture were transferred to each well of a microtiter plate containing either immobilised primer, or primer/template. The enzyme was allowed to bind to the immobilised polymer for 90 min at 33° C. The amount of RT used was standardised to an activity corresponding to 40-60 pg (3.3-5.0×10^−16 mol) reference HIV-1 RT per well. The plates were then washed to remove unbound enzyme whereupon the amount of bound enzyme was determined by addition of the appropriate reaction solution for polymerisation (i e a reaction solution devoid of primer for studies of primer binding and a reaction solution devoid of both primer and template for studies of binding to primed template). The polymerase reaction was allowed to proceed for 3 hours at 33° C., whereupon the reaction was terminated by a wash of the plate.
(§2) The capacity of the indicated substances to inhibit the binding to primer or to primed DNA template of a panel of recombinant HIV 1 subtype B RTs was studied according to “Protocol for RT binding inhibition (BIC) assay” (protocol (iii) above).

[2] = biological target: T2, recombinant HIV-1 RT L100I (Human immunodeficiency virus type 1 group M subtype B, UniProt P03366, L699I); details: immobilised primer/template, binding 90 min at 33° C., read-out: Inhibition of binding to template/primer (BIC50)
T2 construct: performed by recombinant HIV-1 RT:s with defined
Experimental: as §1, §2

## substance 199: 35-mer RNA molecule having the sequence set out in SEQ ID NO:5; similar to SEQ ID NO:4 with some naturally occurring nucleotide derivatives (GCUCAGNCGGNAGAGCANCAGACUUUUAANCUGAN; RNA, backbone, methylation of C and the base at N not given here; naturally occurring modified nucleosides at n positions)
[1]
  IC50: 16 nM
[2]
  IC50: 16 nM
